Literature values as cited in patent US20240350659A1, “COMPOSITIONS AND METHODS FOR BIMODAL ANTI-VIRAL COMBINATION THERAPY” (priority 2021, published 2024).

Test system: SARS-COV-2
Settings: WHO Solidarity Trial; cited from earlier work

B1: interferon beta-1a: repurposed anti-viral drug in the WHO Solidarity Trial (protein, UniProt P01574 22-187, looked up)
Interferon beta: MSYNLLGFLQRSSNFQCQKLLWQLNGRLEYCLKDRMNFDIPEEIKQLQQFQKEDAALTIYEMLQNIFAIFRQDSSSTGWNETIVENLLANVYHQINHLKTVLEEKLEKEDFTRGKLMSSLHLKRYYGRILHYLKAKEYSHCAWTIVRVEILRNFYFINRLTGYLRN
effect on hospitalized patients with Covid-19: little or no effect
